Source: PMC7900799, “Synthesis, antibiotic structure–activity relationships, and cellulose dissolution studies of new room-temperature ionic liquids derived from lignin” (Biotechnology for Biofuels, 2021)

Assay: Cellulose dissolution in ILs (gravimetric, light microscopy, FTIR)
Format: physicochemical
Conditions: for cellulose concentration at which cellulose precipitation was observed: 100 °C, 20 min incubation, light microscopy

| SMILES | cellulose concentration at which cellulose precipitation was observed [wt%] | ability to dissolve and decrease the crystallinity of cellulose (light microscopy and FTIR, 2 wt% cellulose) |
| --- | --- | --- |
| CC(=O)[O-].CC[N+](C)(CC)Cc1ccc(OC)c(OC)c1 [Compound 9, N-(3,4-Dimethoxybenzyl)-N-ethyl-N-methylethanaminium acetate] | 2 | slightly less effective cellulose dissolution and decrystallization |
| CCC[N+](C)(CCC)Cc1ccc(OC)c(OC)c1 [Compound 10, N-(3,4-Dimethoxybenzyl)-N-methyl-N-propylpropan-1-ammonium acetate] | 2 | – |
